This data set can be described thus: Bitter taste upon oral administration.

Molecules are shown by their SMILES. Some entries repeat one wording, which the source may state once for all of them.

Take `CCC(=O)OC1CC(=O)OC(C)CC=CC=CC(OC(C)=O)C(C)CC(CC=O)C(OC2OC(C)C(OC3CC(C)(O)C(OC(=O)CC)C(C)O3)C(N(C)C)C2OC(C)=O)C1OC` (centres unmarked) [9,2'-di-acetyl SF-837 substance, reference compound]: the bitter taste entry was “unpleasant long-lasting bitter taste”.
The value for `CCC(=O)OC1CC(=O)OC(C)CC=CC=CC(OC(C)=O)C(C)CC(CC=O)C(OC2OC(C)C(OC3CC(C)(O)C(OC(=O)CC)C(C)O3)C(N(C)C)C2O)C1OC` (centres unmarked) [9-mono-acetyl SF-837 substance, reference compound] was “unpleasant long-lasting bitter taste”; that for `CCC(=O)OC1CC(=O)OC(C)CC=CC=CC(OC(C)=O)C(C)CC(CC=O)C(OC2OC(C)C(OC3CC(C)(OC(=O)CC)C(OC(C)=O)C(C)O3)C(N(C)C)C2O)C1OC` (centres unmarked) [Compound No. 1] was “substantially does not show any bitter taste”; that for `CCC(=O)OC1CC(=O)OC(C)CC=CC=CC(OC(C)=O)C(C)CC(CC=O)C(OC2OC(C)C(OC3CC(C)(OC(C)=O)C(OC(=O)CC)C(C)O3)C(N(C)C)C2O)C1OC` (centres unmarked) [Compound No. 2] was “practically no bitter taste”.
The value for `CCC(=O)OC1CC(=O)OC(C)CC=CC=CC(OC(C)=O)C(C)CC(CC=O)C(OC2OC(C)C(OC3CC(C)(OC(=O)CC)C(OC(=O)C(C)C)C(C)O3)C(N(C)C)C2O)C1OC` (centres unmarked) [Compound No. 3] was “substantially does not have any bitter taste”; that for `CCC(=O)OC1CC(=O)OC(C)CC=CC=CC(OC(C)=O)C(C)CC(CC=O)C(OC2OC(C)C(OC3CC(C)(OC(=O)CC)C(OC(=O)CC(C)C)C(C)O3)C(N(C)C)C2O)C1OC` (centres unmarked) [Compound No. 4] was “substantially does not have any bitter taste”.
In the case of `CCC(=O)OC1C=CC=CCC(C)OC(=O)CC(OC(=O)CC)C(OC)C(OC2OC(C)C(OC3CC(C)(OC(=O)CC)C(OC(C)=O)C(C)O3)C(N(C)C)C2O)C(CC=O)CC1C` (centres unmarked) [Compound No. 5] it was “substantially does not show any bitter taste”; in that of `CCC(=O)OC1CC(=O)OC(C)CC=CC=CC(OC(C)=O)C(C)CC(CC=O)C(OC2OC(C)C(OC3CC(C)(OC(=O)CC)C(OC(=O)CC)C(C)O3)C(N(C)C)C2O)C1OC` (centres unmarked) [Compound No. 6], “substantially does not have the bitter taste”.

Source of the values: patent US4017607A.
